Results of unrelated studies side by side (data: NIAID ChemDB).

Common to all: tests in culture; agent: Rhinovirus; endpoint: inhibition

Inhibition is in % at the dose shown (toxicity tests: loss of growth or viability). An empty or dashed field is not shown. Two numbers with a dash give a range or band. For "inactive" no cut-off is given. Neighbouring rows are from separate reports.

| structure | strain or isolate | dose | read by | cells | value |
|---|---|---|---|---|---|
| Cc1cc(CCCCCCCOc2ccc(C3=NCCO3)cc2)on1 | 17 serotypes | 1.575 µg/mL | - | - | 53% |
| O=C(O)Cc1csc(/N=C2\SC[C@@H]3Cc4ccccc4CN23)n1 | Serotype 1B | 0.15 µg/mL | cytopathic effect | MRC-5 | 80–100% |
| O=C(Oc1c(-c2ccc(Cl)c(Cl)c2)oc2ccccc2c1=O)c1cc(OCc2ccccc2)c(OCc2ccccc2)c(OCc2ccccc2)c1 | Serotype 1B | 6.25 µM | plaque count | HeLa | 23% |
| Cc1cccc(N2CCN(c3ccc(Br)nn3)CC2)c1 | 100 serotypes | 16 µg/mL | - | - | 71% |
| COc1cc(C(=O)Oc2c(-c3ccc(Cl)cc3)oc3ccccc3c2=O)ccc1OC(C)=O | Serotype 14 | 6.25 µM | plaque count | HeLa | 10% |
| CC(C)Oc1ccc(Cn2cnc3c(N(C)C)nc(C(F)(F)F)nc32)cc1 | Serotype 14 | 8 µM | plaque count | M-HELA | 22% |
| CCCCCCCCCCCCCCOc1ccc(C(C)=O)o1 | 17 serotypes | 0.077 µg/mL | - | - | 18% |
| Cc1ccc(Cn2cnc3c(N(C)C)nc(C(F)(F)F)nc32)cc1 | TYPE 8 | 2.5 µM | plaque count | M-HELA | 41% |
| CC(=O)Oc1ccc(/C=C/C(=O)Oc2c(-c3ccc(Cl)c(Cl)c3)oc3ccccc3c2=O)cc1OC(C)=O | Serotype 14 | 0.86 µM | plaque count | HeLa | inactive |
| O=S(=O)([O-])c1ccc2c(NS(=O)(=O)c3ccccc3)cc(S(=O)(=O)[O-])cc2c1 | - | 10 µg/mL | cytopathic effect | Human amnion AV3 cells | 5% |
| CN(C)c1nc(C(F)(F)F)nc2c1ncn2Cc1ccc(Cl)c(NC=O)c1 | Serotype 2 | 8 µM | plaque count | M-HELA | 35% |
| O=C(Oc1c(-c2ccc(Cl)cc2)oc2ccccc2c1=O)c1cc(O)c(O)c(O)c1 | Serotype 1B | 5.31 µM | plaque count | HeLa | inactive |
| Cc1cccc(C2=CCN(c3ccc(Br)nn3)CC2)c1 | 100 serotypes | 0.013 µg/mL | - | - | 18% |
| COc1cc(C(=O)Oc2c(-c3ccc(Cl)c(Cl)c3)oc3ccccc3c2=O)cc(OC)c1OC(C)=O | Serotype 14 | 6.25 µM | plaque count | HeLa | 30% |
| COc1ccc(N2CCN(c3cccc(C)c3)CC2)nn1 | 100 serotypes | 9.6 µg/mL | - | - | 71% |
| O=C(/C=C/c1ccc(O)c(O)c1)Oc1c(-c2ccc(Cl)cc2)oc2ccccc2c1=O | Serotype 14 | 6.25 µM | plaque count | HeLa | 40% |
| N#Cc1cc([N+](=O)[O-])ccc1Oc1ccc(Cl)c(Cl)c1 | HANK | 0.125 µg/mL | plaque count | VERO | 57.9% |
| COc1cc(/C=C/C(=O)Oc2c(-c3ccc(Cl)c(Cl)c3)oc3ccccc3c2=O)ccc1OC(C)=O | Serotype 1B | 0.39 µM | plaque count | HeLa | 6% |
| CN(C)c1nc(C(F)(F)F)nc2c1ncn2Cc1ccc(C(F)(F)F)cc1 | Serotype 30 | 8 µM | plaque count | M-HELA | 40% |
| O=C(O)c1cc(S(=O)(=O)[O-])ccc1O | - | 10 µg/mL | cytopathic effect | Human embryonic lung cells | 0% |
| CN(C)c1ccc(Cn2cnc3c(N(C)C)nc(C(F)(F)F)nc32)cc1 | Serotype 21 | 8 µM | plaque count | M-HELA | 27% |
| CCN(c1cccc(F)c1)c1nc(C(F)(F)F)nc2c1ncn2Cc1cccc(F)c1 | Serotype 4 | 10 µM | plaque count | M-HELA | 38% |
| NCS(=O)(=O)O | - | 5 µg/mL | cytopathic effect | Human amnion AV3 cells | 40% |
| Fc1cccc(Cn2cnc3c(Nc4cccc(F)c4)nc(C(F)(F)F)nc32)c1 | Serotype 54 | 2.5 µM | plaque count | M-HELA | 27% |
| CS(=O)(=O)c1ccc2c(c1)CCC(c1ccc(Cl)c(Cl)c1)O2 | 17 serotypes | 0.031 µg/mL | - | - | 18% |
| O=S(=O)([O-])c1ccc(O)cc1 | - | 50 µg/mL | cytopathic effect | Human embryonic lung cells | 0% |
| CN(c1cccc(F)c1)c1nc(C(F)(F)F)nc2c1ncn2Cc1cccc(F)c1 | Serotype 5 | 10 µM | plaque count | M-HELA | 18% |
| O=C(Nc1cc(S(=O)(=O)O)cc2cc(S(=O)(=O)O)cc(O)c12)c1ccccc1 | - | 10 µg/mL | cytopathic effect | Human embryonic lung cells | 20% |
| CC(=O)Oc1ccc(/C=C/C(=O)Oc2c(-c3ccc(Cl)cc3)oc3ccccc3c2=O)cc1OC(C)=O | Serotype 14 | 1.91 µM | plaque count | HeLa | inactive |